Results of unrelated studies side by side (data: NIAID ChemDB).

Common to all: target-level tests

Neighbouring rows are from separate reports. An empty or dashed field is not shown. Fold resistance has wild type as its base. a–b is a range or a potency band. Percent inhibition refers to the dose given; in toxicity tests it is the harm to the cells. ICn is the concentration giving n% inhibition.

SMILES,target,mutations,dose,species,read by,strain,measure,value
CCc1cc(CCc2nc3ccccc3o2)c(=O)[nH]c1C,Reverse transcriptase,RT-Y188H,,HIV-1,nucleotide incorporation,,fold resistance,19.8
O=C(O)CCN1C(=O)/C(=C\c2ccc(-c3cccc([N+](=O)[O-])c3)o2)SC1=S,Rev:RRE,,,HIV-1,scintillation proximity / radiometric,,IC50,2.9 µM
Cc1cn([C@H]2CC[C@@H](COP(=O)(O)OP(=O)(O)OP(=O)(O)O)O2)c(=O)[nH]c1=O,Reverse transcriptase,RT-M41L T215Y,,HIV,nucleotide incorporation / radiometric,,fold resistance,1.09
CC(=O)c1cc(C)n(-c2ccc(C(=O)O)c(O)c2)c1C,gp41,,,HIV-1,fluorescence,,IC50,500 µg/mL
CC[C@H](C)[C@H](NC(=O)[C@@H]1CCCN1C(=O)[C@H](Cc1ccc(O)cc1)NC(=O)[C@@H](NC(=O)[C@H](CCC(N)=O)NC(=O)[C@@H](N)CO)C1CCCO1)C(=O)N[C@H](C(=O)O)C(C)C,Protease,,0.05 µM,HIV,,,inhibition,82%
CC(C)(C#Cc1ccc(NC(=O)CSc2nnnn2-c2ccc(C(C)(C)C)cc2Cl)c(Cl)c1)OCC(=O)NCCO,Reverse transcriptase,RT-K103 Y181C,,HIV-1,PicoGreen / fluorescence,,IC50,<1 µM
CC(=O)c1ccc(O)c2nc(/C=C/c3ccc(C(=O)O)cc3[N+](=O)[O-])ccc12,Integrase,,,HIV,3′ processing / gel,HXB2,IC50,2.3 µM
CC(C)(C#Cc1ccc(NC(=O)CSc2nnnn2-c2cc(C3CC3)ccc2Cl)c(Cl)c1F)OCCN1CCNCC1,Reverse transcriptase,RT-K103 Y181C,,HIV-1,PicoGreen / fluorescence,,IC50,<1 µM
O=C(O)CCN1C(=O)/C(=C\c2ccc(-c3cc(Cl)ccc3Cl)o2)SC1=S,Rev:RRE,,,HIV-1,scintillation proximity / radiometric,,IC50,4 µM
CC(C)(C)C(=O)c1cc(=O)c(O)c2n1CCN(Cc1ccc(Cl)c(Cl)c1)C2=O,Integrase,,,HIV-1,ELISA,,IC50,<0.01 µM
NCCCCN(CCCCN)CCNc1c2ccccc2nc2ccccc12,Tat:TAR/LTR,,,HIV-1,gel,,IC50,>1 µM
O=C(/C=C/c1cccn1Cc1ccccc1Cl)CC(=O)C(=O)O,RNase H,Y501A,,HIV-1,substrate cleavage / fluorescence,,IC50,>100 µM
Oc1cc(O)cc(Oc2c(O)cc(O)c3c2Oc2c(O)cc(Oc4c(O)cc(Oc5c(O)cc(O)c6c5Oc5c(O)cc(O)cc5O6)cc4O)cc2O3)c1,Reverse transcriptase + Protease,,,HIV-1,HPLC,,IC50,36.9 µM
CC(C)(C)c1ccc(-n2nnnc2SCC(=O)Nc2ccc(OCCN3CCCCC3)cc2Cl)c(Cl)c1,Reverse transcriptase,RT-K103 Y181C,,HIV-1,PicoGreen / fluorescence,,IC50,<1 µM
CNc1ccccc1C(=O)O[C@H]1[C@@H](O)[C@H](n2cnc3c(N)ncnc32)O[C@@H]1COP(=O)(O)OP(=O)(O)OP(=O)(O)OP(=O)(O)OC[C@@H]1CC[C@H](n2cnc3c(=O)[nH]c(N)nc32)O1,Reverse transcriptase,RT-D67N K70R,,HIV,nucleotide incorporation / radiometric,,fold resistance,0.156
CC(C)(C#Cc1ccc(NC(=O)CSc2nnnn2-c2ccc(C(C)(C)C)cc2Cl)c(Cl)c1)C(=O)NC1CC1,Reverse transcriptase,,,HIV-1,PicoGreen / fluorescence,WT,IC50,<1 µM
CC(C)(CS(=O)(=O)[O-])[NH2+]C(=O)C(CC(F)(OC(F)(F)C(F)(OC(F)(F)C(F)(OC(F)(F)C(F)(F)C(F)(F)F)C(F)(F)F)C(F)(F)F)C(F)(F)F)C(F)(OC(F)(F)C(F)(OC(F)(F)C(F)(OC(F)(F)C(F)(F)C(F)(F)F)C(F)(F)F)C(F)(F)F)C(F)(F)F,gp120,,4 µg/mL,HIV-1,ELISA,,inhibition,72%
CC(C)(C)c1ccc(-n2nnnc2SCC(=O)Nc2ccc(NC(=O)c3cccc(O)c3)cc2Cl)c(Cl)c1,Reverse transcriptase,RT-K103 Y181C,,HIV-1,PicoGreen / fluorescence,,IC50,<1 µM
Nc1nc2c(ncn2[C@H]2CC[C@@H](COP(=O)(O)OP(=O)(O)OP(=O)(O)OP(=O)(O)OC[C@H]3O[C@@H](n4cnc5c(N)ncnc54)[C@H](O)[C@@H]3O)O2)c(=O)[nH]1,Reverse transcriptase,RT-D67N K70R,,HIV,nucleotide incorporation / radiometric,,IC50,1.4 µM
C=CC(C)(C)c1[nH]c2ccccc2c1C1=C(O)C(=O)C(c2c(C(C)(C)C=C)[nH]c3ccccc23)=C(O)C1=O,Protease,PR-V82T,,HIV,,,Ki,1.25 µM
O=C(/C=C/c1cccn1Cc1ccc(F)cc1)CC(=O)C(=O)O,RNase H,Y501A,,HIV-1,substrate cleavage / fluorescence,,IC50,11.6 µM
O=C1N/C(=N\N=C\c2ccc(Cl)c([N+](=O)[O-])c2)S/C1=C/c1ccc(-c2ccc(Cl)c(C(=O)O)c2)o1,Rev:RRE,,,HIV-1,scintillation proximity / radiometric,,IC50,1.1 µM
CC(C)(C#Cc1ccc(NC(=O)CSc2nnnn2-c2ccc(C3CC3)cc2Cl)c(Cl)c1F)C(=O)O,Reverse transcriptase,RT-K103 Y181C,,HIV-1,PicoGreen / fluorescence,,IC50,<1 µM
Nc1nc2c(ncn2[C@H]2CO[C@@H](COP(=O)(O)OP(=O)(O)OP(=O)(O)O)O2)c(=O)[nH]1,Reverse transcriptase,RT-Q151M K103N,,HIV,radiometric,,fold resistance,1.5
CC(=O)c1ccc(O)c2nc(/C=C/c3cc(O)c(O)c(O)c3)ccc12,Integrase,,,HIV,3′ processing / gel,HXB2,IC50,0.51 µM
c1ccc2c(NCCCn3ccnc3)nc(-c3ccncc3)nc2c1,Capsid,,,HIV-1,AlphaScreen,,IC50,>200 µM
CC(=O)c1ccc(C(=O)Nc2ccc(-c3nc4ccc(NC(=O)c5ccc(C(C)=O)cc5)cc4[nH]3)cc2)cc1,Rev:RRE,,,HIV-1,scintillation proximity / radiometric,,IC50,6.7 µM
CC(C)(C)c1ccc(-n2nnnc2SCC(=O)Nc2ccc(C(=O)Nc3cccc4cccnc34)cc2Cl)c(Cl)c1,Reverse transcriptase,,,HIV-1,PicoGreen / fluorescence,WT,IC50,<1 µM
CCCCCCC[C@@H]1O[C@@H]1CO,Protease,,,HIV-2,HPLC,,IC50,<500 µg/mL
Nc1ccc2cc(S(=O)(=O)[O-])cc(O)c2c1N=Nc1ccc(NC(=O)Nc2ccc(N=Nc3c(N)ccc4cc(S(=O)(=O)[O-])cc(O)c34)c(S(=O)(=O)[O-])c2)cc1S(=O)(=O)[O-],Rev:RRE,,,HIV-1,scintillation proximity / radiometric,,IC50,1 µM
CCOC(=O)C(=O)CC(=O)/C=C/c1cc(-c2ccccc2)cn1Cc1ccc(F)cc1,RNase H,Y501A,,HIV-1,substrate cleavage / fluorescence,,IC50,>100 µM
Nc1ccn([C@H]2CC[C@@H](COP(=O)(O)OP(=O)(O)OP(=O)(O)O)O2)c(=O)n1,Reverse transcriptase,RT-W88G,,HIV,nucleotide incorporation / radiometric,,IC50,0.28 µM
CC(C)(C#Cc1ccc(NC(=O)CSc2nnnn2-c2cc(C(C)(C)C)cc(Br)c2Cl)c(Cl)c1)NC(=O)CN1CCNCC1,Reverse transcriptase,,,HIV-1,PicoGreen / fluorescence,WT,IC50,<1 µM
Nc1ncnc2c1ncn2[C@H]1CC[C@@H](COP(=O)(O)OP(=O)(O)OP(=O)(O)OP(=O)(O)OC[C@@H]2CC[C@H](n3cnc4c(N)ncnc43)O2)O1,Reverse transcriptase,RT-W88G,,HIV,nucleotide incorporation / radiometric,,fold resistance,>2.3
CCCCCCCCC[C@H]1O[C@@H]1C(=O)O,Protease,,500 µg/mL,HIV-2,HPLC,,inhibition,88%
CC(=O)Nc1ccc(-c2nc3ccc(-c4ccc5nc(-c6ccc(NC(C)=O)cc6)[nH]c5c4)cc3[nH]2)cc1,Rev:RRE,,,HIV-1,scintillation proximity / radiometric,,IC50,4.6 µM
COc1cc(Cl)ccc1CN1CCn2cc(-c3nccs3)c(=O)c(O)c2C1=O,Integrase,,,HIV-1,ELISA,,IC50,0.01–0.1 µM
COC(=O)c1ccc(-c2ccc(NC(=O)CSc3nnnn3-c3ccc(C)cc3Cl)c(Cl)c2)cc1,Reverse transcriptase,RT-K103 Y181C,,HIV-1,PicoGreen / fluorescence,,IC50,<1 µM
NS(=O)(=O)c1ccc(-c2ccc(/C=C3/SC(=S)N(CCC(=O)O)C3=O)o2)cc1,Rev:RRE,,,HIV-1,scintillation proximity / radiometric,,IC50,90 µM
Cc1cc(C(=O)c2ccc([N+](=O)[O-])cc2)c(-c2ccccc2)n1-c1ccc(C(=O)O)c(O)c1,gp41,,,HIV-1,fluorescence,,IC50,123 µg/mL
CC(C)(C)c1ccc(-n2nnnc2SCC(=O)Nc2ccc(OCC(=O)NC3CCOCC3)cc2Cl)c(Cl)c1,Reverse transcriptase,,,HIV-1,PicoGreen / fluorescence,WT,IC50,<1 µM
CCCNC(=O)c1cn2ccn(Cc3cccc(Cl)c3)c(=O)c2c(O)c1=O,Integrase,,,HIV-1,ELISA,,IC50,<0.01 µM
CC(C)(C)c1ccc(-n2nnnc2SCC(=O)Nc2ccc(C(=O)NC(CO)C(=O)O)cc2Cl)c(Cl)c1,Reverse transcriptase,,,HIV-1,PicoGreen / fluorescence,WT,IC50,<1 µM
O=C(Nc1ccc(Br)cc1C(=O)O)c1cccc(C(=O)Nc2ccc(Br)cc2C(=O)O)n1,Reverse transcriptase,,,HIV-2,,,IC50,>100 µg/mL
CC(C)(C)c1ccc(-n2nnnc2SCC(=O)Nc2ccc(C#CCO)cc2Cl)c(Cl)c1,Reverse transcriptase,RT-K103 Y181C,,HIV-1,PicoGreen / fluorescence,,IC50,<1 µM
O=C(CCCCC(=O)Nc1ccccc1C(=O)O)Nc1ccc(Br)cc1,Reverse transcriptase,,,HIV-2,,,IC50,>100 µg/mL
CC(C)(C#Cc1ccc(NC(=O)CSc2nnnn2-c2cc(Br)ccc2Cl)c(Cl)c1)NC(=O)c1cc[n+]([O-])cc1,Reverse transcriptase,RT-K103 Y181C,,HIV-1,PicoGreen / fluorescence,,IC50,<1 µM
Cc1cc(C(=O)c2ccccc2)c(C)n1-c1ccc(C(=O)O)c(O)c1,gp41,,,HIV-1,fluorescence,,IC50,500 µg/mL
O=C(Nc1cn2ccn(Cc3ccc(F)cc3)c(=O)c2c(O)c1=O)c1ccccc1,Integrase,,,HIV-1,ELISA,,IC50,<0.01 µM
COc1ccc(Nc2nc(-c3cccnc3)nc3ccccc23)cc1OC,Capsid,,,HIV-1,AlphaScreen,,IC50,>200 µM
CC(C)(C#Cc1ccc(NC(=O)CSc2nnnn2-c2ccc(C(C)(C)C)cc2Cl)c(Cl)c1)COC(N)=O,Reverse transcriptase,RT-K103 Y181C,,HIV-1,PicoGreen / fluorescence,,IC50,<1 µM
c1cncc(-c2nc(Nc3ccc4n[nH]nc4c3)c3ccccc3n2)c1,Capsid,,,HIV-1,AlphaScreen,,IC50,1.9 µM
COC(=O)Cc1ccc(-c2ccc(NC(=O)CSc3nnnn3-c3ccc(C)cc3Cl)c([N+](=O)[O-])c2)cc1,Reverse transcriptase,RT-K103 Y181C,,HIV-1,PicoGreen / fluorescence,,IC50,<1 µM
CCCC[C@@H](CN[C@@H](CCC(N)=O)C(=O)N[C@@H](CCCN=C(N)N)C(N)=O)NC(=O)[C@H](CCCC)NC(=O)C(NC(=O)C(NC(C)=O)[C@@H](C)O)[C@@H](C)CC,Protease,PR-N88D,,HIV,HPLC,,IC50,>2.17 µM
CC(C)(C#Cc1ccc(NC(=O)CSc2nnnn2-c2ccc(C(C)(C)C)cc2Cl)c(Cl)c1)OCC(=O)NC1(C(=O)O)CC1,Reverse transcriptase,RT-K103 Y181C,,HIV-1,PicoGreen / fluorescence,,IC50,<1 µM
O=C(COCC(=O)Nc1ccc(Br)cc1C(=O)O)Nc1ccc(Br)cc1C(=O)O,Reverse transcriptase,,,HIV-2,,,IC50,>100 µg/mL
Cc1ccc(Cn2cccc2/C=C/C(=O)CC(=O)C(=O)O)c(C)c1,RNase H,N474A,,HIV-1,substrate cleavage / fluorescence,,IC50,>100 µM
Cc1cc(Cl)c(-n2nnnc2SCC(=O)Nc2ccc(C#CC(C)(C)O)cc2Cl)cc1C(F)(F)F,Reverse transcriptase,RT-K103 Y181C,,HIV-1,PicoGreen / fluorescence,,IC50,<1 µM

Again, the opening 6 rows:

SMILES	target	mutations	dose	species	read by	strain	measure	value
CCc1cc(CCc2nc3ccccc3o2)c(=O)[nH]c1C	Reverse transcriptase	RT-Y188H		HIV-1	nucleotide incorporation		fold resistance	19.8
O=C(O)CCN1C(=O)/C(=C\c2ccc(-c3cccc([N+](=O)[O-])c3)o2)SC1=S	Rev:RRE			HIV-1	scintillation proximity / radiometric		IC50	2.9 µM
Cc1cn([C@H]2CC[C@@H](COP(=O)(O)OP(=O)(O)OP(=O)(O)O)O2)c(=O)[nH]c1=O	Reverse transcriptase	RT-M41L T215Y		HIV	nucleotide incorporation / radiometric		fold resistance	1.09
CC(=O)c1cc(C)n(-c2ccc(C(=O)O)c(O)c2)c1C	gp41			HIV-1	fluorescence		IC50	500 µg/mL
CC[C@H](C)[C@H](NC(=O)[C@@H]1CCCN1C(=O)[C@H](Cc1ccc(O)cc1)NC(=O)[C@@H](NC(=O)[C@H](CCC(N)=O)NC(=O)[C@@H](N)CO)C1CCCO1)C(=O)N[C@H](C(=O)O)C(C)C	Protease		0.05 µM	HIV			inhibition	82%
CC(C)(C#Cc1ccc(NC(=O)CSc2nnnn2-c2ccc(C(C)(C)C)cc2Cl)c(Cl)c1)OCC(=O)NCCO	Reverse transcriptase	RT-K103 Y181C		HIV-1	PicoGreen / fluorescence		IC50	<1 µM